Laboratory results: paper PMC6877725, “Identification of the periplasmic DNA receptor for natural transformation of Helicobacter pylori”
For some assays here: A weaker result is weaker than the reference pair of the same experiment. For some assays here: Protein sequences can lack the tags named with them. For some assays here: Construct, isoform or probe ends are uncertain for at least one entry. For some assays here: No signal at the amounts used counts as a negative. For some assays here: At least one verdict rests on a figure or table, not on a statement of the authors.

What was measured:
[1] = target: T1, ComH-His6 (Helicobacter pylori 26695) (UniProt O26055); assay: SPR; settings: residual binding; SPR: PBS + 0.005% Tween20, 25 °C; recombinant protein; protein details: C-terminal His6; label: 5'-biotin; single-stranded DNA
T1 sequence (looked up, limits assumed): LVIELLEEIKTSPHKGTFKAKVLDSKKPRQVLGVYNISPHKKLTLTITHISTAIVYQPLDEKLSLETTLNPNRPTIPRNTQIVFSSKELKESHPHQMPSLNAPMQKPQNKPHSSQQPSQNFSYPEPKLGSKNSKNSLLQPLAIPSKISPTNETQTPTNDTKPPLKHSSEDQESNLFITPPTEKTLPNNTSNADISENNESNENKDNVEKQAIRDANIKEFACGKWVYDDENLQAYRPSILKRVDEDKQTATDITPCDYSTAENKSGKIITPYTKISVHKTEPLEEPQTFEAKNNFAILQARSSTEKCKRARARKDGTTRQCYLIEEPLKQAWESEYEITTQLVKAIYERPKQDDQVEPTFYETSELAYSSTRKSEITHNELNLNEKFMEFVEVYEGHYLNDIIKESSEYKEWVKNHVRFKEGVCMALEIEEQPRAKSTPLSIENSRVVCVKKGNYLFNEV

[2] = test system: MBP-ComH (Helicobacter pylori 26695); assay: EMSA; settings: EMSA: 10 mM Tris-HCl pH 7.5, 50 mM KCl, ~100 mM NaCl, 0.1 mM MgCl2, 1 mM DTT, 0.1 µg/µl BSA, on ice 30 min, recombinant protein, residues 20-479, protein details: N-terminal MBP
[3] = test system: MBP-ComH-CTD (Helicobacter pylori 26695); assay: EMSA; settings: EMSA: 10 mM Tris-HCl pH 7.5, 50 mM KCl, ~100 mM NaCl, 0.1 mM MgCl2, 1 mM DTT, 0.1 µg/µl BSA, on ice 30 min; recombinant protein; residues 170-479; protein details: N-terminal MBP; label: 5'-Cy5 on strand 1
[4] = test system: MBP-ComH-NTD (Helicobacter pylori 26695); assay: EMSA; settings: negligible affinity; EMSA: 10 mM Tris-HCl pH 7.5, 50 mM KCl, ~100 mM NaCl, 0.1 mM MgCl2, 1 mM DTT, 0.1 µg/µl BSA, on ice 30 min; recombinant protein; residues 20-169; protein details: N-terminal MBP; label: 5'-Cy5 on strand 1

## GTAGTGCTGTAGGAGAATATACGGGCTGCTCGTGTTGACAAGTACTGATG [50-mer ssDNA (Op249)]
[1]
  binding result: binds more weakly

## TAGCATCGATCAGTCCTC (double strand) [18 bp dsDNA (Cy5-PNK1 + cPNK1)]
[2]; label: 5'-Cy5 on strand 1
  binding result: binds
[3]
  binding result: binds
[4]
  binding result: no binding

## TAGCATCGATCAGTCCTC / GAGGTCTAGCATCGTTAGTCA / TGACTAACGATGCTAGACCTCGAGGACTGATCGATGCTA [Nicked DNA (Cy5-PNK1 + PNK2-TAMRA + PNK3)]
[2]
  binding result: binds

## TAGCATCGATCAGTCCTC / TGACTAACGATGCTAGACCTCGAGGACTGATCGATGCTA [5'-overhang DNA (Cy5-PNK1 + PNK3)]
[2]; label: 5'-Cy5 on strand 1
  binding result: binds

## TAGCATCGATCAGTCCTC [18-mer ssDNA (Cy5-PNK1)]
[2]; label: 5'-Cy5, single-stranded DNA
  binding result: no binding

## TGACTAACGATGCTAGACCTCGAGGACTGATCGATGCTA (double strand) [39 bp dsDNA (Cy5-PNK3 + cPNK3)]
[2]; 200 nM protein, stable up to 600 mM NaCl or KCl, label: Cy5 on strand 1
  binding result: binds
